Data as given in PubChem BioAssay AID1259414 (Drosophila RNAi Screening Center, 2018).
Assay: 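Fly genes that alter Wolbachia amount inside host cells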 (primary screen). System: Drosophila JW18 cells infected with Wolbachia. Reagents: long dsRNA against Drosophila genes, 0.25 µg dsRNA per well of a 384-well plate. Duration: 5 days. Treatment: cells persistently infected with Wolbachia before knock-down; no added drug. Measurement: 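Imaged fluorescence in situ signal for Wolbachia 23S rRNA per DAPI-counted host cell, given as a robust z-score within each plate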. Scale: Wolbachia per cell robust z: higher = more Wolbachia per host cell than the plate typical. Call rule: 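Hit when robust z is 1.5 or more, or -1.5 or less, in at least two of three replicates; excludes dsRNAs with several or no targets, genes not expressed in JW18 and well A1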.
The screen tested about 24,000 reagents; shown is an unselected part of those that have a named target and a result. In the full data, about 1,210 (5%) were called active. 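Inactive calls also include excluded dsRNAs with several or no targets, genes unexpressed in JW18, and well A1, regardless of score.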 A plus sign joins genes that one reagent is predicted to hit. Reagent sequences are not shown.

Gene,DRSC id,"Wolbachia per cell robust z, rep 1","Wolbachia per cell robust z, rep 2","Wolbachia per cell robust z, rep 3",outcome
CG17974,DRSC04299,-0.369,-0.584,-0.254,inactive
CG30158,DRSC04956,0.363,0.822,-0.0153,inactive
CG30158,DRSC04974,-0.622,-6.32,-6.09,inactive
CG30158,DRSC04975,0.45,-1.38,0.236,inactive
CG30158,DRSC05012,-1.18,0.439,0.568,inactive
LeuRS-m,DRSC08595,-9.6,0.108,-3.89,active
LeuRS-m,DRSC28690,-1.19,-0.649,0.565,inactive
mRpL27,DRSC22568,-0.293,-0.925,-0.155,inactive
CG7457,DRSC10849,-0.927,0.253,0.348,inactive
CG7457,DRSC27107,-3.32,-5.78,-3.45,inactive
CG13926,DRSC08395,0.201,0.809,-2.08,inactive
cpa,DRSC04080,0.332,0.83,0.956,inactive
Adk2,DRSC09827,0.461,0.0835,0.314,inactive
rost,DRSC03603,-8.44,0.987,0.426,inactive
rost,DRSC28296,-0.0676,-0.388,-0.158,inactive
rost,DRSC38966,0.269,0.0453,0.688,inactive
eys,DRSC00402,-0.91,-4.99,1.05,inactive
eys,DRSC00403,-0.496,0.782,0.325,inactive
eys,DRSC00695,-6.22,-0.286,-0.709,inactive
Atg10,DRSC06172,0.232,-0.366,-0.188,inactive
Antdh,DRSC20307,0.277,0.444,1.24,inactive
Antdh,DRSC25689,0.186,-1.02,0.542,inactive

Part of the list above, showing only “Wolbachia per cell robust z, rep 1”:
CG30158 [DRSC04956]: 0.363
CG30158 [DRSC04974]: -0.622
CG30158 [DRSC04975]: 0.45
CG30158 [DRSC05012]: -1.18

Next reagents follow:
Gene,DRSC id,"Wolbachia per cell robust z, rep 1","Wolbachia per cell robust z, rep 2","Wolbachia per cell robust z, rep 3",outcome
FucTA,DRSC10733,-0.182,-0.87,-7.32,inactive
CG31464,DRSC14345,-0.0741,0.364,-0.0579,inactive
CG14570,DRSC11731,-1.18,0.0225,-0.716,inactive
CG14570,DRSC24676,0.879,0.0482,-0.575,inactive
teq,DRSC10298,1.09,0.369,0.588,inactive
teq,DRSC11301,0.458,-1.09,-2.4,inactive
teq,DRSC11302,-0.683,-0.331,0.361,inactive
CG2790,DRSC04045,0.224,-4,-5.51,active
CG2790,DRSC25882,0.49,-0.0203,0.105,inactive
CG2790,DRSC38986,1.09,-1.21,-0.492,inactive
CG14540,DRSC14884,1.23,1.27,1.15,inactive
CG14540,DRSC25080,-0.0195,-0.354,0.494,inactive
CG14540,DRSC39076,0.127,0.271,-2.79,inactive
SIFa,DRSC04480,1.06,-0.588,1.97,inactive
Mipp2,DRSC18682,0.499,-7.1,0.657,inactive
Acp53C14b,DRSC06569,-1.83,0.17,1.57,inactive
CNPYb,DRSC09845,-0.847,0.0218,-1.21,inactive
CG43996 + CG43997,DRSC19456,0.622,-1.94,0.115,inactive
CG43996 + CG43997,DRSC19457,-2.83,0.18,-2.07,inactive
CG15399,DRSC38934,-0.463,0.558,-0.0635,inactive
CG33233,DRSC08239,0.449,-1.59,-0.757,inactive
CG42287,DRSC40611,0.469,-0.876,-1.72,inactive
KP78b + KP78a,DRSC16722,0.419,0.21,-0.175,inactive
KP78b + KP78a,DRSC23338,-0.116,-0.619,-1.07,inactive
KP78b + KP78a,DRSC23341,-0.508,-0.103,0.115,inactive
